How the values were obtained:
[1] = system: P. falciparum female gametocytes; assay: P. falciparum female gametogenesis assay (Pf FGAA); settings: unified cytotox over Pf FGAA IC50; red: <10-fold selectivity; green: >10-fold
[2] = system: P. falciparum late stage (stages IV-V) gametocytes; assay: P. falciparum late stage gametocyte ATP depletion assay (Pf GC-ATP); settings: unified cytotox over Pf GC-ATP IC50; red: <10-fold selectivity; green: >10-fold

Row | Structure (SMILES) | Assay tox ratio Pf FGAA [1] | Assay tox ratio Pf GC-ATP [2]
1 | COc1c(C2CCN(CCN3CCC(CNC(=O)c4ccc(-c5ccc(C#N)cc5)cc4)CC3)CC2)ccc2c1CCCC2 [TCMDC-138859] | 2.30 | 2.89
2 | CC1(C)CC(NCCCCCCCOc2ccc(OCc3ccccc3)cc2)CC(C)(C)N1.Cl [TCMDC-138958] | 2.33 | 4.23
3 | Cl.Clc1ccc(OCCC2CCN(CCCCCCCN3CCC(CCOc4ccc(Cl)c(Cl)c4)CC3)CC2)cc1Cl [TCMDC-138967] | 4.09 | 4.56
4 | C=C[C@H]1CN(CCCCCCC)CC[C@H]1CCNc1ccnc2ccc(OC)cc12 [TCMDC-139204] | 1.57 | 2.61
5 | COc1ccc(CNC(=O)c2cnc3c(O)cccc3c2Nc2cccc(NC(=O)c3ccc(Cl)c(Cl)c3)c2)cc1.O=C(O)C(F)(F)F [TCMDC-139607] | 0.97 | 2.29
6 | CC(Cc1ccc(CNC(=O)c2ccc(CC(C)NCCc3cccc(Cl)c3)cc2)cc1)NCCc1cccc(Cl)c1 (centres unmarked) [TCMDC-139659] | 3.14 | 4.75
7 | CC(=O)N(Cc1ccc(CC(C)NCCc2cccc(Cl)c2)cc1)Cc1ccc(CC(C)NCCc2cccc(Cl)c2)cc1 (centres unmarked) [TCMDC-139678] | 3.18 | 1.84
8 | c1cc(Nc2nc(-c3ccc(-c4csc(Nc5ccncc5)n4)cc3)cs2)ccn1 [TCMDC-139725] | 336.68 | 37.62
9 | CC(Cc1ccc(C(=O)Nc2ccc(CC(C)NCCc3cccc(Cl)c3)cc2)cc1)NCCc1ccc(C(F)(F)F)cc1 (centres unmarked) [TCMDC-139790] | 3.69 | 12.11
10 | CC(CCCCCC(=O)Nc1ccc(CC(C)NCCc2cccc(Cl)c2)cc1)NCCc1cccc(Cl)c1 (centres unmarked) [TCMDC-139800] | 2.06 | 6.63
11 | CCOc1ccccc1CCNC(C)Cc1ccc(C(=O)Nc2ccc(CC(C)NCCc3cccc(Cl)c3)cc2)cc1 (centres unmarked) [TCMDC-139805] | 2.42 | 5.49
12 | CCCCCCCN1CC[C@@H](CCCc2ccnc3ccc(OCCN4CCNCC4)cc23)[C@@H](CC)C1.Cl [TCMDC-139817] | 3.12 | 10.28
13 | Cc1oc(-c2ccc(Cl)cc2)cc1C(=O)NCCC1CCN(CCCCCNC(=O)/C=C/c2ccc(Cl)c(Cl)c2)CC1 [TCMDC-140009] | 2.02 | 0.68
14 | CC(Cc1ccc(OCCCCOc2ccccc2)cc1)NCCC1CCCN1C (centres unmarked) [TCMDC-140017] | 5.62 | 11.81
15 | CN(CCCCN)Cc1ccc(-c2ccc(Cl)cc2)cc1 [TCMDC-140123] | 2.39 | 9.12
16 | CN1CCN(CCCN(Cc2cccc(-c3ccc(CNC4CCCC4)cc3)c2)C(=O)/C=C/c2ccccc2)CC1.O=C(O)C(F)(F)F [TCMDC-140544] | 5.19 | 9.58
17 | CN1CCN(CCCN(Cc2cccc(-c3ccc(CNCCc4ccccc4)cc3)c2)C(=O)c2cccs2)CC1.O=C(O)C(F)(F)F [TCMDC-140568] | 3.39 | 6.50
18 | CN1CCN(CCCNCc2cccc(-c3ccc(CNCCc4ccccc4)cc3)c2)CC1 [TCMDC-140643] | 6.85 | 31.65
19 | COc1cc(NCCCNCc2cn(Cc3cc(Br)cc(Br)c3)c3ccccc23)nc2ccccc12 [TCMDC-140677] | 5.86 | 8.53
20 | CN(C)CCCOc1ccc(CN2CCC(c3c[nH]c4ccc(NCC5CCCCC5)cc34)CC2)cc1.O=C(O)C(F)(F)F [TCMDC-140737] | 10.94 | 12.28
21 | CCN(CC)CCN(Cc1ccc(-c2ccc(C(F)(F)F)cc2)cc1)C(=O)Cn1cc(Cc2cnn(C)c2)c(=O)nc1/C=C/c1cccc(F)c1F [TCMDC-140964] | 13.86 | 69.50
22 | ON=C1CCc2cc(-c3cc(-c4ccc(OC5CCNCC5)cc4)oc3-c3ccncc3)ccc21 [TCMDC-141381] | 29.72 | 21.93
23 | Cc1c(Cn2ncc(N3CCC(N)CC3)c(Cl)c2=O)cccc1NC(=O)Nc1ccc(-c2ccccc2)cc1.O=C(O)C(F)(F)F [TCMDC-141931] | 17.13 | 15.92
24 | O=C(O)CCSSc1cccc[n+]1[O-] [TCMDC-141973] | 492.91 | 71.31
25 | Cl.Nc1c(I)cc(C(=O)Nc2ccc3nc4c(c(N)c3c2)CCCC4)cc1I [TCMDC-142289] | 8.09 | 15.30

Reference: article PMC6753678, “Fueling Open Innovation for Malaria Transmission-Blocking Drugs: Hundreds of Molecules Targeting Early Parasite Mosquito Stages” (Frontiers in Microbiology, 2019)
